Compound potency records, mixed from different reports. Data source: NIAID ChemDB in PubChem.

Shared fields: whole-cell or culture tests; agent: Candida albicans; read-out: MIC

Blank or dashed fields: not listed here. Lines come from different laboratories, so protocols vary.

structure	strain	read by	conditions	result
Nn1c(SCC(O)(Cn2cncn2)c2ccc(F)cc2F)nnc1-c1ccc(Cl)cc1Cl	PTCC 6027	broth dilution		16 µg/mL
CCC(C)n1ncn(-c2ccc(N3CCN(c4ccc(OC[C@H]5CO[C@](Cn6cncn6)(c6ccc(Cl)cc6Cl)O5)cc4)CC3)cc2)c1=O	10 isolates	broth dilution	pH 4	0.03 µg/mL
COC(=O)/C=C/c1ccc(OC)cc1		broth dilution / resazurin		500 µg/mL
CC[C@@H]([C@H](C)O)n1ncn(-c2ccc(N3CCN(c4ccc(OC[C@@H]5CO[C@@](Cn6cncn6)(c6ccc(F)cc6F)C5)cc4)CC3)cc2)c1=O	10 isolates	broth dilution	pH 7	0.03 µg/mL
C[C@H](O)Cc1cc2c(O[C@H]3O[C@H](CO)[C@@H](O)[C@H]3O)ccc(O)c2c(=O)o1	ATCC 10231	turbidity		>128 µg/mL
Nn1c(SCC(O)(Cn2cncn2)c2ccc(F)cc2F)nnc1-c1ccc(O)cc1	IRFC 37	broth dilution		>64 µg/mL
CCC(C)CC(C)CCCCCCCCC(=O)N[C@H]1C[C@@H](O)[C@H](NCCN)NC(=O)[C@@H]2[C@@H](O)CCN2C(=O)[C@H]([C@H](O)CCN)NC(=O)[C@H]([C@H](O)[C@@H](O)c2ccc(O)cc2)NC(=O)[C@@H]2C[C@@H](O)CN2C(=O)[C@H]([C@@H](C)O)NC1=O	C294	broth dilution		0.02 µg/mL
O=C(c1c[nH]c2ccccc12)[C@H](O)CO	ATCC 10231	turbidity		>128 µg/mL
CC(C)(O)c1cn(-c2ccc(Cl)cc2)nn1	URM 4817	broth dilution		128 µg/mL
COC(=O)[C@H]1[C@@H]2C[C@@H](O[C@@H]3O[C@H](C)[C@@H](O)[C@H](N)[C@@H]3O)/C=C/C=C/C=C/C=C/C=C/C=C/C=C/[C@H](C)[C@@H](O)[C@H](C)[C@H](C)OC(=O)C[C@H](O)C[C@H](O)[C@@H](O)CC[C@H](O)C[C@H](O)C[C@](O)(C[C@@H]1O)O2	10 isolates	broth dilution	pH 7	0.5 µg/mL
Nn1c(SCC(O)(Cn2cncn2)c2ccc(F)cc2F)nnc1-c1ccc(F)cc1	PTCC 6027	broth dilution		>64 µg/mL
C[C@@H]1CC(=O)N(c2ccc(Br)cc2)C1=O	ATCC 10231	broth dilution / turbidity		125 µg/mL
CCC(C)CC(C)CCCCCCCCC(=O)N[C@H]1C[C@@H](O)[C@H](NCCN)NC(=O)[C@@H]2[C@@H](O)CCN2C(=O)[C@H]([C@H](O)CCN)NC(=O)[C@H]([C@H](O)[C@@H](O)c2ccc(O)cc2)NC(=O)[C@@H]2C[C@@H](O)CN2C(=O)[C@H]([C@@H](C)O)NC1=O	15 isolates	broth dilution	pH 4	0.06 µg/mL
C[C@@H]1CC(=O)N(CCCc2ccccc2)C1=O	ATCC 10231	broth dilution / turbidity		62.5 µg/mL
Nn1c(SCC(O)(Cn2cncn2)c2ccc(Cl)cc2Cl)nnc1-c1ccc(O)cc1	IRFC 37	broth dilution		64 µg/mL
CC1C(=O)N(CCc2ccccc2)C(=O)C1C	ATCC 10231	broth dilution / turbidity		125 µg/mL
Nn1c(SCC(O)(Cn2cncn2)c2ccc(F)cc2F)nnc1-c1ccncc1	IRFC 36	broth dilution		>64 µg/mL
C[C@@H]1C(=O)N(CCCCc2ccccc2)C(=O)[C@@H]1C	ATCC 10231	broth dilution / turbidity		62.5 µg/mL
Nn1c(SCC(O)(Cn2cncn2)c2ccc(F)cc2F)nnc1-c1ccc(Cl)cc1	IRFC 192	broth dilution		>64 µg/mL
CC(C)S(=O)(=O)N1CCN(c2cnn(-c3cc(F)cc(F)c3)c(=O)c2OC2CCC(F)C2)CC1	C375	broth dilution		0.25 µg/mL
CC1CC(=O)N(c2ccc(F)cc2F)C1=O	ATCC 10231	broth dilution / turbidity		250 µg/mL
COc1ccc(-c2nnc(SCC(O)(Cn3cncn3)c3ccc(Cl)cc3Cl)n2N)cc1	PTCC 6027	broth dilution		8 µg/mL

The last 2 rows once more:

structure	strain	read by	conditions	result
CC1CC(=O)N(c2ccc(F)cc2F)C1=O	ATCC 10231	broth dilution / turbidity		250 µg/mL
COc1ccc(-c2nnc(SCC(O)(Cn3cncn3)c3ccc(Cl)cc3Cl)n2N)cc1	PTCC 6027	broth dilution		8 µg/mL